Pooled drug test results. Numbers come from NIAID ChemDB, via PubChem.

Common to all: toxicity to cultured cells; cell line: HepG2; measure: CC50

An empty or dashed field is not shown. Neighbouring rows are from separate reports. CCn is the concentration with n% toxicity to the cells.

{"SMILES": "CC(=O)/C(=C/C=C/c1ccccc1)[N+](=O)[O-]", "read by": "MTT", "result": ">160 µg/mL"}
{"SMILES": "CC[C@@]1(O)C(=O)OCc2c1cc1n(c2=O)Cc2cc3ccccc3nc2-1", "read by": "MTT", "result": "0.0327 µg/mL"}
{"SMILES": "CCC(=O)OC1O[C@@H]2OC3(C)CCC4[C@H](C)CCC([C@H]1C)[C@]42OO3", "read by": "ATP / luminescence", "result": ">26 µM"}
{"SMILES": "CC(=O)c1cccc(NC(=O)/C=C/c2ccc([N+](=O)[O-])cc2)c1", "read by": "MTT", "result": ">160 µg/mL"}
{"SMILES": "CCCCN(CCCC)CC(O)COc1cccc2ccccc12", "read by": "cell count / luminescence", "result": "11.5 µM"}
{"SMILES": "Cc1cc(O)c(C(=O)/C=C/c2ccccc2)c(=O)o1", "read by": "MTT", "result": ">80 µg/mL"}
{"SMILES": "O=C1OC(=O)c2c1cc1c(Br)cc3c(c1c2-c1cc2c(cc1Br)OCO2)OCO3", "result": "6 µM"}
{"SMILES": "Cc1csc(C(C)(O)c2nnc(Nc3ccc(Br)cn3)s2)n1", "read by": "resazurin / fluorescence", "result": "79.4 µM"}
{"SMILES": "OC1C(O)C(O)C(O)C(O)C1O", "read by": "ATP", "result": ">26 µM"}
{"SMILES": "Cc1cc(=O)[nH]c(N/N=C/c2cc(Cl)cc(Cl)c2O)n1", "read by": "MTT", "result": "225.4 µg/mL"}
{"SMILES": "CC/C=C\\C[C@@H]1[C@@H](CC(=O)OC)CC[C@H]1O", "read by": "ATP", "result": ">26 µM"}
{"SMILES": "CN(C)C(=O)Oc1ccc(Cl)cc1C(=O)Nc1ccc(F)cc1", "read by": "MTT", "result": "444.5 µM"}
{"SMILES": "C=CCOc1ccc(CNC(C)C(O)c2ccccc2)cc1", "read by": "cell count / luminescence", "result": ">21.8 µM"}
{"SMILES": "O=c1[nH]c(=S)[nH]c(O)c1C=Nc1cc(Cl)ccc1O", "read by": "MTT", "result": "103.1 µg/mL"}
{"SMILES": "CCCCC1(CC(=O)OCC)C(=O)N(c2ccccc2)N(c2ccccc2)C1=O", "read by": "cell count / luminescence", "result": "26.6 µM"}
{"SMILES": "CC1(C)CC[C@]2(C(=O)O)CC[C@]3(C)C(=CC[C@@H]4[C@@]5(C)C[C@@H](O)[C@H](O)C(C)(C)[C@@H]5CC[C@]43C)[C@@H]2C1", "read by": "ATP", "result": ">26 µM"}
{"SMILES": "O=C1OCc2c1cc1ccc3c(c1c2-c1ccc2c(c1)OCO2)OCO3", "result": "26 µM"}
{"SMILES": "C[C@@H]1CCC2[C@@H](C)[C@@H](OCCNCCN3CCCCC3)O[C@@H]3OC4(C)CCC1[C@@]23OO4", "read by": "ATP / luminescence", "result": ">13.3 µM"}
{"SMILES": "CN(C)C(=S)Oc1ccc(Cl)cc1C(=O)Nc1ccc(C(F)(F)F)cc1", "read by": "MTT", "result": "67.29 µM"}
{"SMILES": "Cc1cccc(Nc2nnc(C(C)(O)c3nc(C)cs3)s2)n1", "read by": "resazurin / fluorescence", "result": ">100 µM"}
{"SMILES": "Nc1nc(NC2CC2)c2ncn([C@H]3C=C[C@@H](CO)C3)c2n1", "read by": "neutral red", "result": "320 µM"}
{"SMILES": "OCc1cc2ccc3c(c2c(-c2ccc4c(c2)OCO4)c1CO)OCO3", "result": "16 µM"}
{"SMILES": "Cc1ccc(OCC(O)CN2CCc3ccccc3C2)c(C(C)(C)C)c1", "read by": "cell count / luminescence", "result": ">29.6 µM"}
{"SMILES": "O=C(Nc1ccc(Br)cc1)c1cc(Cl)ccc1OC(=O)N(c1ccccc1)c1ccccc1", "read by": "MTT", "result": ">100 µM"}
{"SMILES": "C[C@H](Cn1cnc2c(N)ncnc21)OCP(=O)(O)O", "read by": "neutral red", "result": "399 µM"}
{"SMILES": "Cc1ccc(/C=C/C(=O)c2c(O)cc(C)oc2=O)cc1", "read by": "MTT", "result": ">40 µg/mL"}
{"SMILES": "c1ccc(Cc2ccccc2OCCCCn2cccc2)cc1", "read by": "cell count / luminescence", "result": ">37.1 µM"}
{"SMILES": "CO[C@H]1O[C@@H]2O[C@@]3(C)CC[C@H]4[C@H](C)CC[C@@H]([C@H]1C)[C@@]24OO3", "read by": "ATP / luminescence", "result": ">26 µM"}
{"SMILES": "COc1cc2c(cc1O)CCN1CC=C3C=C[C@H](OC)C[C@]321", "read by": "MTT", "result": "11.8 µg/mL"}
{"SMILES": "N#CC(O)c1ccccc1", "read by": "MTT", "result": "1100 µg/mL"}
{"SMILES": "COc1cc2c(cc1OC)[C@]13C[C@@H](OC)C=CC1=CCN3CC2", "read by": "MTT", "result": "15.8 µg/mL"}
{"SMILES": "C[C@H]1C(OC(=O)c2ccc([N+](=O)[O-])cc2)O[C@@H]2OC3(C)CCC4[C@H](C)CCC1[C@]42OO3", "read by": "ATP / luminescence", "result": ">23.8 µM"}
{"SMILES": "O=C(Nc1ccc(F)cc1)c1cc(Cl)ccc1OC(=O)N(c1ccccc1)c1ccccc1", "read by": "MTT", "result": ">100 µM"}
{"SMILES": "COc1cc(N/N=C/c2ccccc2O)ncn1", "read by": "MTT", "result": ">40 µg/mL"}
{"SMILES": "CCc1cccc(OCCCCN(C)Cc2ccccc2)c1", "read by": "cell count / luminescence", "result": ">30.4 µM"}
{"SMILES": "O=C1OCc2c1cc1c(Br)cc3c(c1c2-c1cc2c(cc1Br)OCO2)OCO3", "result": "20 µM"}
{"SMILES": "CC1C(=O)N(O)c2ncc(Br)cc2C1O", "read by": "MTS", "setting": "3 d", "result": "65.7 µM"}
{"SMILES": "CCCCCCCCCC(=O)OC1O[C@@H]2OC3(C)CCC4[C@H](C)CCC([C@H]1C)[C@]42OO3", "read by": "ATP / luminescence", "result": ">26 µM"}

Repeating the final 5 entries:

SMILES	read by	setting	result
COc1cc(N/N=C/c2ccccc2O)ncn1	MTT	-	>40 µg/mL
CCc1cccc(OCCCCN(C)Cc2ccccc2)c1	cell count / luminescence	-	>30.4 µM
O=C1OCc2c1cc1c(Br)cc3c(c1c2-c1cc2c(cc1Br)OCO2)OCO3	-	-	20 µM
CC1C(=O)N(O)c2ncc(Br)cc2C1O	MTS	3 d	65.7 µM
CCCCCCCCCC(=O)OC1O[C@@H]2OC3(C)CCC4[C@H](C)CCC([C@H]1C)[C@]42OO3	ATP / luminescence	-	>26 µM